Results as given in US11597726B2 (Certego Therapeutics Inc., priority 2020, dated 2023).

System: c-fos
Test: Pharmacomapping: whole-brain drug-evoked c-fos activation
[1] = gaboxadol at 30 mg/kg and higher, d2-gaboxadol at 10 mg/kg and higher
[2] = gaboxadol at 10 and 20 mg/kg, d2-gaboxadol at 6 mg/kg

SMILES | activation of dorsal and ventral anterior cingulate cortex (ACAd and ACAv) [1] | activation of dorsal and ventral anterior cingulate cortex (ACAd and ACAv) [2]
[2H]C1([2H])NCCc2c1o[nH]c2=O [d2-gaboxadol 7,7, 4,5,6,7-tetrahydroisoxazolo[5,4-c]pyridin-3(2H)-one-7,7-d2] | strongly diminished | strong activation
Oc1noc2c1CCNC2 [gaboxadol, 4,5,6,7-tetrahydroisoxazolo (5,4-c) pyridin-3-ol] | strongly diminished | strong activation
